The experiment concerns the target gp120 from CC101.19 cl.7 (HIV-1).

As to “CD4-IgG2 (PRO542) (from UniProt P01730) (Fc fusion)”, the IC50 for inhibition of replication of the clonal virus in PBMC (p24 antigen); inhibits gp120-CD4 binding was 0.1 µg/mL.

Source of the values: PMC2718843.
